Patent US8828930B2, “Hepatitis C virus NS3 protease inhibitors” (Merck Sharp & Dohme Corp., priority 2009, dated 2014)
Where two headings read alike, the source gives them in different places.

Sequences of proteins named here, by UniProt entry; tags and fusion partners are left off. A change or cut given only in a name is not applied to a line headed by its entry. Residues count along the entry.
UniProt P26663, 1658-1711 partner limits assumed: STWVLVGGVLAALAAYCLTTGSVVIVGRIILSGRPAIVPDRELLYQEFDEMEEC
UniProt P26663, 1027-1657 limits assumed: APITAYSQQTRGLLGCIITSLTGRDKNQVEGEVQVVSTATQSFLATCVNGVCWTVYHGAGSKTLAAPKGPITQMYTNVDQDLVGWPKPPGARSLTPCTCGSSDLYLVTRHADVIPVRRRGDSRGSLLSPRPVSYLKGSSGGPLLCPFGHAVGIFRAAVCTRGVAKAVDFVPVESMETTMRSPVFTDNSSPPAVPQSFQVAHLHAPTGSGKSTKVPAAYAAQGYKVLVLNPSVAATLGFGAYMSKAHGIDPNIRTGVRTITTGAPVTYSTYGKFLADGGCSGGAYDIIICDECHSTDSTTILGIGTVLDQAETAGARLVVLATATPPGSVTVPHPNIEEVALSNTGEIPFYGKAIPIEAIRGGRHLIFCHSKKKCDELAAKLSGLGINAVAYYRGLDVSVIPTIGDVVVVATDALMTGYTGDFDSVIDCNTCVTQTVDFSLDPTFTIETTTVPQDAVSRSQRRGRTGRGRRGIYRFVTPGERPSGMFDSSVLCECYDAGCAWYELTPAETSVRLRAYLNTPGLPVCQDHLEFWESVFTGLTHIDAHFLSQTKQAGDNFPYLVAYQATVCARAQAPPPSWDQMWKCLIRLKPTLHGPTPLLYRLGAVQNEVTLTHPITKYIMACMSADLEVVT
UniProt P26663, 1027-1657 A1182V limits assumed: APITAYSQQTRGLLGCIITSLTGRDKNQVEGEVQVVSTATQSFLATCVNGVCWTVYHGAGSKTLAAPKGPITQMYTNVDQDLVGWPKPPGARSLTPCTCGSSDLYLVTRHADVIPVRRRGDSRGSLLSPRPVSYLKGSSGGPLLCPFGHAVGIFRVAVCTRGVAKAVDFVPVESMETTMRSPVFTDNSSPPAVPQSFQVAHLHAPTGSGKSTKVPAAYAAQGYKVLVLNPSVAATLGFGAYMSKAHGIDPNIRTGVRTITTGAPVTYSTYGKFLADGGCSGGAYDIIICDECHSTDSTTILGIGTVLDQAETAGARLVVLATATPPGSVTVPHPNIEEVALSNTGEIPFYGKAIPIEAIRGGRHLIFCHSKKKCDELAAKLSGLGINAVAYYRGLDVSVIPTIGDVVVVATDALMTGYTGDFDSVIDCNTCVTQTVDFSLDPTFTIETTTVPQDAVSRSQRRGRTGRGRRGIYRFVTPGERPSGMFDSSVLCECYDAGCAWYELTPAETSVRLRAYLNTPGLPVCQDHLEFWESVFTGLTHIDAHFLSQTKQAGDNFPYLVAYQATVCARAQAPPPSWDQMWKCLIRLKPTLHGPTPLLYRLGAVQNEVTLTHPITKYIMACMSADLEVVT
UniProt Q81258, 1033-1663 limits assumed: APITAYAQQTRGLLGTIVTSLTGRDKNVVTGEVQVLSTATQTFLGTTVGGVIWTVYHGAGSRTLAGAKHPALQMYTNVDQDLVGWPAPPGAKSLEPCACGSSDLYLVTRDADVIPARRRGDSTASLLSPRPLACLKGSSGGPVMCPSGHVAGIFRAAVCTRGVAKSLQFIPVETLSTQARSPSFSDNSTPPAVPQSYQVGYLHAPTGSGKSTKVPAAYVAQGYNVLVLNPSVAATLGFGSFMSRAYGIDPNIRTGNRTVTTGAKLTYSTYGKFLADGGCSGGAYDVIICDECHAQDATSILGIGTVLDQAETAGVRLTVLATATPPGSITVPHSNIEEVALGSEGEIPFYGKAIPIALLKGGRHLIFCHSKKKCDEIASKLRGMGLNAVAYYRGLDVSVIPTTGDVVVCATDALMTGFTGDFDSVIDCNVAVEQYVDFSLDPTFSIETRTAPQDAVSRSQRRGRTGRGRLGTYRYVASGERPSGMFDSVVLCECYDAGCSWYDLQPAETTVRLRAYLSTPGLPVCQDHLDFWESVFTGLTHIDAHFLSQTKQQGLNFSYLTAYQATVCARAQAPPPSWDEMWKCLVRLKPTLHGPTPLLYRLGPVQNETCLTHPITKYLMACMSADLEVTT
UniProt Q81258, 1664-1717 partner limits assumed: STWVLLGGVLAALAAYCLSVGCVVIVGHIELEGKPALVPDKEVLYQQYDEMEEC

Key:
[1] = target: NS3/4A protease gt 1b (Hepatitis C virus genotype 1b, UniProt P26663); assay: HCV NS3 protease time-resolved fluorescence (TRF) assay, NS3/4A inhibitory activity (Ki), gt 1b; format: biochemical; settings: read-out: gt 1b Ki, NS3/4A enzyme
Description: (§1) The HCV NS3 protease inhibitory activity of the present compounds may be tested using assays known in the art. One such assay is HCV NS3 protease time-resolved fluorescence (TRF) assay as described below and in WO 2006/102087. Other examples of such assays are described in, for example, WO 2005/046712. HCV NS3 protease inhibitors, such as those described herein have a Ki less than 50 μM, such as less than 10 μM, and less than 100 nM. Ki is determined by an NS3 protease assay. The assay is performed in a final volume of 100 μl in assay buffer containing 50 mM HEPES, pH 7.5, 150 mM NaCl, 15% glycerol, 0.15% TRITON X-100, 10 mM DTT, and 0.1% PEG 8000. NS3 protease is preincubated with various concentrations of inhibitors in DMSO for 30 minutes. […] Product fluorescence is detected using either a VICTOR V2 or FUSION fluorophotometer (PERKIN ELMER LIFE AND ANALYTICAL SCIENCES) with excitation at 340 nm and emission at 615 nm with a 400 μs delay. […]
(§2) This NS3 protease assay was performed in a final volume of 100 μl assay buffer containing 50 mM HEPES, pH 7.5, 150 mM NaCl, 15% glycerol, 0.15% TRITON X-100, 10 mM DTT, and 0.1% PEG 8000. […] Product fluorescence was detected using either a V1CTOR V2 or FUSION fluorophotometer (PERKIN ELMER LIFE AND ANALYTICAL SCIENCES) with excitation at 340 nm and emission at 615 nm with a 400 us delay. […]

[2] = target: NS3/4A protease gt 3a (Hepatitis C virus genotype 3a, UniProt Q81258); assay: HCV NS3 protease time-resolved fluorescence (TRF) assay, NS3/4A inhibitory activity (Ki), gt 3a; format: biochemical; settings: read-out: gt 3a Ki, NS3/4A enzyme
Description: as §1, §2

[3] = target: NS3/4A protease gt 1b A156V (Hepatitis C virus genotype 1b, UniProt P26663, A1182V); assay: HCV NS3 protease time-resolved fluorescence (TRF) assay, NS3/4A inhibitory activity (Ki), gt 1b A156V; format: biochemical; settings: read-out: gt 1b A156V Ki; NS3/4A enzyme, genotype 1b A156V mutant
Description: as §1, §2

[4] = tested on: HCV gt 1b replicon; assay: HCV replicon assay, compound inhibitory potency (Replicon EC50)
Description: Measurement of inhibition by compounds was performed using the HCV replicon system. Several different replicons encoding different HCV genotypes or mutations were used. In addition, potency measurements were made using different formats of the replicon assay, including different ways of measurements and different plating formats. See Jan M. Vrolijk et al., A replicon-based bioassay for the measurement of interferons in patients with chronic hepatitis C, 110 J. VIROLOGICAL METHODS 201 (2003); Steven S. Carroll et al., Inhibition of Hepatitis C Virus RNA Replication by 2′-Modified Nucleoside Analogs, 278(14) J. BIOLOGICAL CHEMISTRY 11979 (2003). However, the underlying principles are common to all of these determinations, and are outlined below. […]
To initiate an assay, replicon cells were plated in the presence of a dilution series of test compound in the absence of G418. […] For direct quantitation, RNA levels were measured by 32P-probe hybridization and protection, or in a TAQMAN-based assay and normalized to cellular cyclophilin A RNA levels. In some cases, luciferase activity was measured using a conventional luciferase assay. In all cases, EC50 determinations were calculated as a percent of a DMSO control by fitting the data to a four-parameter fit function.

O=C1N[C@H]2CCCCC/C=C\[C@@H]3C[C@@]3(C(=O)NS(=O)(=O)C3CC3)NC(=O)[C@@H]3C[C@H](CN3C2=O)Oc2nc3ccccc3nc2CCCCC[C@@H]2CCC[C@H]2O1
Ki [1]: 0.85 nM
Ki [2]: 1.88 nM
Ki [3]: 8.7 nM
EC50 ([4]; read-out: gt 1b Replicon EC50 10% FBS, 10% fetal bovine serum): 4 nM
EC50 ([4]; read-out: gt 1b Replicon EC50 50% NHS, 50% normal human serum): 22 nM
